Compound potency records, mixed from different reports. Data source: NIAID ChemDB in PubChem.

Common to all: whole-cell or culture tests; organism: Junin virus

An empty or dashed field is not shown. ECn: concentration that inhibits the pathogen or its effect by n%. Lines come from different laboratories, so protocols vary. Percent inhibition refers to the dose given; in toxicity tests it is the harm to the cells.

smiles | strain or isolate | cells | measure | tested at | value
Nc1ccn(CCCC(O)CF)c(=O)n1 |  | VERO | EC50 |  | >200 µg/mL
CC[C@@H](C(C)C)[C@H](O)[C@@H](O)[C@@H](C)[C@H]1CC[C@H]2[C@@H]3CC(=O)[C@H]4C[C@H](O)[C@H](O)C[C@]4(C)[C@H]3CC[C@]12C | IV4454 | VERO | EC50 |  | 6.2 µM
Cc1cn(C(CF)CCCO)c(=O)[nH]c1=O |  | VERO | EC50 |  | >200 µg/mL
Nc1nccc2c1ncn2[C@@H]1C=C(CO)[C@@H](O)[C@H]1O |  |  | MIC |  | 1 µg/mL
CC12CC[C@H](O)CC1=CCC1C2CCC2(C)C(C(=O)COS(=O)(=O)O)CCC12 | IV4454 | VERO | inhibition | 40 µg/mL | 28.9%
Nc1nccc2c1ncn2[C@@H]1C=C[C@@H](O)[C@H]1O |  |  | MIC |  | 2 µg/mL
C=C[C@@H](O)C1=C[C@@H](n2cnc3c(N)ncnc32)[C@H](O)[C@@H]1O |  | VERO | EC50 |  | >50 µg/mL
CC[C@@H](C(C)C)[C@H](O)[C@@H](O)[C@@H](C)[C@H]1CC[C@H]2[C@@H]3CC(=O)[C@@]4(O)C[C@@H](Br)CC[C@]4(C)[C@H]3CC[C@]12C | IV4454 | VERO | EC90 |  | 12.6 µM
Nc1ncnc2c1ncn2CCCC(O)CF |  | VERO | EC50 |  | >50 µg/mL
CC12CC[C@H](OS(=O)(=O)O)CC1=CCC1C2CCC2(C)C(C(=O)CO)CCC12 | IV4454 | VERO | inhibition | 40 µg/mL | 0%
CC[C@@H](C(C)C)[C@@H](O)[C@H](O)[C@@H](C)[C@H]1CC[C@H]2[C@@H]3CC(=O)[C@H]4C[C@@H](OC(C)=O)CC[C@]4(C)[C@H]3CC[C@]12C | IV4454 | VERO | EC50 |  | 6.1 µM
CC(=O)O[C@H]1CC2=CCC3C(CCC4(C)C(C(CCC=C(C)C)COS(=O)(=O)O)CCC34)C2(C)C[C@@H]1OS(=O)(=O)O | IV4454 | VERO | inhibition | 80 µg/mL | 44.7%
Nc1nccc2c1ncn2[C@@H]1CC[C@@H](O)[C@H]1O |  |  | MIC |  | 0.01 µg/mL
CC[C@@H](C(C)C)[C@H](O)[C@@H](O)[C@@H](C)[C@H]1CC[C@H]2[C@@H]3CC(=O)[C@@]4(O)C[C@H](O)[C@H](O)C[C@]4(C)[C@H]3CC[C@]12C | IV4454 | VERO | EC90 |  | 4.1 µM
C#C[C@@H](O)C1=C[C@@H](n2cnc3c(N)ncnc32)[C@H](O)[C@@H]1O |  | VERO | EC50 |  | >50 µg/mL
CC12CCC3C(C[C@H](OS(=O)(=O)O)[C@H]4C[C@@H](OS(=O)(=O)O)CCC34C)C1CCC2C(=O)CO | IV4454 | VERO | inhibition | 80 µg/mL | 10.5%
CC[C@@H](C(C)C)[C@@H](O)[C@H](O)[C@@H](C)[C@H]1CC[C@H]2[C@@H]3CC(=O)[C@@]4(O)C[C@H](O)[C@H](O)C[C@]4(C)[C@H]3CC[C@]12C | IV4454 | VERO | EC50 |  | 0.2 µM
C#C[C@H](O)C1=C[C@@H](n2cnc3c(N)ncnc32)[C@H](O)[C@@H]1O |  | VERO | EC50 |  | >50 µg/mL

A second listing of 2 rows from above:

Cc1cn(C(CF)CCCO)c(=O)[nH]c1=O ; cells: VERO ; measure: EC50 ; value: >200 µg/mL
CC[C@@H](C(C)C)[C@H](O)[C@@H](O)[C@@H](C)[C@H]1CC[C@H]2[C@@H]3CC(=O)[C@@]4(O)C[C@H](O)[C@H](O)C[C@]4(C)[C@H]3CC[C@]12C ; strain or isolate: IV4454 ; cells: VERO ; measure: EC90 ; value: 4.1 µM